Record: PubChem BioAssay AID624099 (ICCB-Longwood, 2012)

Screen: 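Human genes that papillomavirus E2 requires to repress the HPV18 LCR promoter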 (primary screen)
System: human C33A cervical carcinoma cells (HPV-negative) stably expressing BPV1 E2 and an HPV18 LCR luciferase reporter
Reagents: siRNA pool against human genes, 40 nM
Time to read-out: 72 h
Measurement: 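HPV18 LCR reporter light per well, converted to plate-wise z-scores that exclude control wells, and averaged over triplicate plates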
Scale: mean z-score and z-score: higher = stronger reporter signal, weaker E2 silencing
Hit rule: 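Hit if mean z-score reaches 2 and two or more of three replicate z-scores also reach 2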
Shown is an unselected part of about 21,000 deposited reagents. In the full data, 497 (2.4%) are marked active. 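Higher z means weaker E2 silencing; only reporter increases were scored, and knock-downs that hurt cell survival may mask genuine repressor factors.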 Reagents against one gene are numbered here. Reagent sequences are not shown.

gene | reagent | mean z-score | z-score, replicate A | z-score, replicate B | z-score, replicate C | Call
SPTSSA | 1 | -0.35 | -0.07 | -0.66 | -0.31 | inactive
DPPA5P4 | 1 | 0.09 | -0.03 | 0.15 | 0.15 | inactive
INTS1 | 1 | 4.94 | 5.12 | 5.01 | 4.71 | active
MYO16 | 1 | -0.09 | -0.17 | -0.2 | 0.1 | inactive
UGT1A3 | 1 | 1.5 | 1.05 | 1.78 | 1.68 | inactive
PTPRS | 1 | -1.27 | -1.3 | -1.1 | -1.39 | inactive
CCSER1 | 1 | -0.85 | -1.02 | -1 | -0.53 | inactive
CCSER1 | 2 | -0.52 | -0.61 | -0.42 | -0.53 | inactive
GMFG | 1 | 0.52 | 0.43 | 1 | 0.12 | inactive
SHCBP1 | 1 | 0.02 | -0.21 | 0.1 | 0.18 | inactive
NEURL1B | 1 | 0.05 | -0.44 | 0.19 | 0.41 | inactive
ABCA16P | 1 | 0.17 | 0.32 | 0.07 | 0.11 | inactive
CCDC186 | 1 | 0.73 | 0.81 | 1.21 | 0.16 | inactive
ZNF273 | 1 | 0.84 | 0.25 | 1.02 | 1.26 | inactive
ZNF273 | 2 | 0.95 | 1.09 | 0.82 | 0.94 | inactive
NEIL1 | 1 | 1.32 | 1.27 | 1.58 | 1.12 | inactive

Next part, starting with the last 2 of the part before.
gene | reagent | mean z-score | z-score, replicate A | z-score, replicate B | z-score, replicate C | Call
ZNF273 | 2 | 0.95 | 1.09 | 0.82 | 0.94 | inactive
NEIL1 | 1 | 1.32 | 1.27 | 1.58 | 1.12 | inactive
SMCP | 1 | -1.3 | -1.17 | -1.21 | -1.52 | inactive
DOCK5 | 1 | 1.58 | 1.4 | 2 | 1.33 | inactive
LDLRAP1 | 1 | 0.62 | 0.68 | 0.57 | 0.61 | inactive
KCNJ6 | 1 | -0.25 | -0.36 | -0.24 | -0.13 | inactive
EXTL1 | 1 | -0.44 | -0.54 | -0.55 | -0.21 | inactive
LSM1 | 1 | 1.16 | 0.69 | 1.64 | 1.16 | inactive
NOS2 | 1 | -0.02 | -0.21 | -0.08 | 0.23 | inactive
BEST3 | 1 | -1.17 | -1.01 | -1.23 | -1.27 | inactive
BEST3 | 2 | 0.53 | 0.55 | 0.83 | 0.21 | inactive
LY9 | 1 | 1.37 | 1.29 | 1.31 | 1.52 | inactive
RHD | 1 | 0.16 | 0.27 | 0.28 | -0.09 | inactive
ADAMTS12 | 1 | -0.78 | -0.97 | -0.75 | -0.63 | inactive
DGAT2-DT | 1 | -0.03 | 0.2 | 0.01 | -0.29 | inactive
JTB | 1 | 0.67 | 0.32 | 0.95 | 0.75 | inactive
DCANP1 | 1 | -0.29 | -0.26 | -0.7 | 0.1 | inactive
DNAH6 | 1 | -0.12 | 0.05 | -0.29 | -0.14 | inactive
DNAH6 | 2 | 0.85 | 0.79 | 0.71 | 1.06 | inactive
DNAH6 | 3 | -0.15 | 0.04 | -0.27 | -0.22 | inactive
DNAH6 | 4 | 1.04 | 1.01 | 1.05 | 1.05 | inactive
GTPBP8 | 1 | -0.6 | -0.72 | -0.7 | -0.37 | inactive
SORBS3 | 1 | -1.8 | -1.81 | -2 | -1.58 | inactive
ABO | 1 | 0.02 | 0.28 | 0.09 | -0.32 | inactive
CPAMD8P1 | 1 | -0.88 | -0.93 | -0.84 | -0.88 | inactive
CPAMD8P1 | 2 | -0.95 | -1.03 | -0.85 | -0.97 | inactive
